Compound potency records, mixed from different reports. Data source: NIAID ChemDB in PubChem.

Common to all: growth or infection tests

a–b is a range or a potency band. An empty or dashed field is not shown. ECn is the concentration giving n% inhibition of infection, replication or growth. Lines come from different laboratories, so protocols vary. Fold resistance has wild type as its base. Percent inhibition refers to the dose given; in toxicity tests it is the harm to the cells.

O=C(NCCc1ccccc1)Nc1nc2ccccc2s1 ; cells: MT-4 ; read-out: inhibition ; dose: 0.1 µg/mL ; organism: HIV-2 ; method: cytopathic effect / XTT ; value: 17%
COc1ccc(-c2cnc3nc(N)nc(N4CCOCC4)c3n2)cc1OC ; strain: IIIB ; cells: MT-4 ; read-out: EC50 ; organism: HIV ; value: >100 µM
CC(C)=CCOc1cc(NC(=S)c2ccoc2C)ccc1Cl ; strain: 4XAZT+Y181C (RT D67N K70R Y181C T215Y K219Q) ; cells: CEM + CEM-SS ; read-out: fold resistance ; changes: RT-D67N K70R Y181C T215Y K219Q ; organism: HIV-1 ; method: p24 ; value: 33
Cc1nc(NC(=O)NCCc2ccccc2)sc1C ; cells: MT-4 ; read-out: inhibition ; dose: 10 µg/mL ; organism: HIV-2 ; method: cytopathic effect / XTT ; value: 100%
O=C(COc1ccc(Cl)cc1C(=O)c1ccccc1)Nc1ccc2cn[nH]c2c1 ; strain: HXB2 ; cells: HeLa + HELA CD4+ ; read-out: fold resistance ; changes: RT-Y181C ; organism: HIV-1 ; method: β-galactosidase ; value: ~10
CCOP(=O)(OCC)C(O)Cn1cc(Cn2cnc3c(N)ncnc32)nn1 ; strain: ROD ; cells: CEM ; read-out: inhibition ; dose: 100 µM ; organism: HIV-2 ; value: 0%
Cc1cc2[nH]cnc2cc1NC(=O)COc1ccc(Cl)cc1C(=O)c1cc(F)cc(C(F)(F)F)c1 ; strain: HXB2 ; cells: HeLa + HELA CD4+ ; read-out: fold resistance ; changes: RT-E138K ; organism: HIV-1 ; method: β-galactosidase ; value: ~1
CN1C(=O)[C@@H](Cc2ccccc2)NC1=S ; cells: MT-4 ; read-out: inhibition ; dose: 100 µg/mL ; organism: HIV-2 ; method: cytopathic effect / XTT ; value: 100%
CC(=O)NC1C=CN(c2cn(C(O)CP(=O)(O)O)nn2)C(=O)N1 ; strain: ROD ; cells: CEM ; read-out: inhibition ; dose: 100 µM ; organism: HIV-2 ; value: 0%
CCS(=O)(=O)Nc1cccc(-c2cnc3nc(N)nc(N4CCOCC4)c3n2)c1 ; strain: IIIB ; cells: MT-4 ; read-out: EC50 ; organism: HIV ; value: 17.8 µM
Cc1cc(S(N)(=O)=O)ccc1NC(=O)COc1ccc(Cl)cc1C(=O)c1cccc(C#N)c1 ; strain: HXB2 ; cells: HeLa + HELA CD4+ ; read-out: fold resistance ; changes: RT-V106I ; organism: HIV-1 ; method: β-galactosidase ; value: ~1
CCOP(=O)(CCCC(O)n1cc(N2C=CC(NC(C)=O)NC2=O)nn1)OCC ; strain: ROD ; cells: CEM ; read-out: inhibition ; dose: 100 µM ; organism: HIV-2 ; value: 0%
Cc1cc(N2CCS(=O)CC2)ccc1NC(=O)COc1ccc(Cl)cc1C(=O)c1cccs1 ; strain: HXB2 ; cells: HeLa + HELA CD4+ ; read-out: fold resistance ; changes: RT-K103N ; organism: HIV-1 ; method: β-galactosidase ; value: ~1
N#Cc1csc(NC(=O)NCCc2ccccc2)n1 ; cells: MT-4 ; read-out: inhibition ; dose: 100 µg/mL ; organism: HIV-2 ; method: cytopathic effect / XTT ; value: 0%
Cc1cc(C#N)cc(C(=O)c2cc(Cl)ccc2OCC(=O)Nc2cnc(S(N)(=O)=O)cc2C)c1 ; strain: HXB2 ; cells: HeLa + HELA CD4+ ; read-out: fold resistance ; changes: RT-P236L ; organism: HIV-1 ; method: β-galactosidase ; value: ~1
CCCCN1C(=O)[C@@H](Cc2ccccc2)NC1=S ; cells: MT-4 ; read-out: inhibition ; dose: 10 µg/mL ; organism: HIV-2 ; method: cytopathic effect / XTT ; value: 82%
O=c1ccn(-c2cn(CP(=O)(O)O)nn2)c(=O)[nH]1 ; strain: ROD ; cells: CEM ; read-out: inhibition ; dose: 100 µM ; organism: HIV-2 ; value: 0%
O=C(NCCc1ccccc1)Nc1cncc(Cl)n1 ; cells: MT-4 ; read-out: inhibition ; dose: 100 µg/mL ; organism: HIV-2 ; method: cytopathic effect / XTT ; value: 26–100%
Cc1cc(OCCCS(N)(=O)=O)ccc1NC(=O)COc1ccc(Cl)cc1C(=O)c1cc(F)cc(C(F)(F)F)c1 ; strain: HXB2 ; cells: HeLa + HELA CD4+ ; read-out: fold resistance ; changes: RT-V108I ; organism: HIV-1 ; method: β-galactosidase ; value: ~1
O=C(NCCc1ccccc1)Nc1nc2ccc(F)cc2s1 ; cells: MT-4 ; read-out: inhibition ; dose: 0.1 µg/mL ; organism: HIV-2 ; method: RT activity ; value: 4%
CN1C2N=CN=C(N)C2=NC1c1cn(CP(=O)(O)O)nn1 ; strain: ROD ; cells: CEM ; read-out: inhibition ; dose: 100 µM ; organism: HIV-2 ; value: 0%
Cc1cc(C)cc(C(=O)c2cc(Cl)ccc2OCC(=O)Nc2ccc(S(N)(=O)=O)cc2C)c1 ; strain: HXB2 ; cells: HeLa + HELA CD4+ ; read-out: EC50 ; changes: RT-K103N P225H ; organism: HIV-1 ; method: β-galactosidase ; value: <0.01 µM
CCOP(=O)(CCn1cc(N2C=CC(NC(C)=O)NC2=O)nn1)OCC ; strain: ROD ; cells: CEM ; read-out: inhibition ; dose: 100 µM ; organism: HIV-2 ; value: 0%
O=C1[C@@H](Cc2ccccc2)NC(=S)N1c1ccccc1 ; cells: MT-4 ; read-out: inhibition ; dose: 10 µg/mL ; organism: HIV-2 ; method: cytopathic effect / XTT ; value: 48%
O=c1ccn(-c2cn(C(O)CP(=O)(O)O)nn2)c(=O)[nH]1 ; strain: ROD ; cells: CEM ; read-out: inhibition ; dose: 100 µM ; organism: HIV-2 ; value: 0%
COc1ccc(-c2cnc3nc(N)nc(N4CCN(C)CC4)c3n2)cc1OC ; strain: IIIB ; cells: MT-4 ; read-out: EC50 ; organism: HIV ; value: >100 µM

Again, the opening 2 rows:

SMILES | strain | cells | read-out | dose | changes | organism | method | value
O=C(NCCc1ccccc1)Nc1nc2ccccc2s1 | - | MT-4 | inhibition | 0.1 µg/mL | - | HIV-2 | cytopathic effect / XTT | 17%
COc1ccc(-c2cnc3nc(N)nc(N4CCOCC4)c3n2)cc1OC | IIIB | MT-4 | EC50 | - | - | HIV | - | >100 µM